Measured values published in PMC5454105.

System: Cc1cc(=O)oc2c(F)c(OP(=O)(O)O)c(F)cc12
Assay: purified protein
Settings: 37.0 °C

Substance: (Legionella pneumophila subsp. pneumophila str. Philadelphia 1)
- Km: 11.3 ± 0.8 µM
- kcat/Km: 3580 M⁻¹ s⁻¹
